The target of the test is HIV-1 protease (Human immunodeficiency virus type 1 group M subtype B, UniProt P04585). Description: Biological assay for inhibition of microbial expressed viral protease (HIV-1 protease). The conditions noted are these: read-out: Activity; IC50 against HIV-1 protease, given as class symbol. The text has this: Insofar as compounds of the invention are able to inhibit the replication of the HIV virus in human T-cells and furthermore, may be delivered orally to mammals, they are of evident clinical utility for the treatment of HIV infection. These tests are predictive of the compounds ability to inhibit HIV protease in vivo. We have measured the inhibition constants of each compound against HIV-1 protease using essentially the method described by M. W. Pennington et al., Peptides 1990, Gimet, E. and D. Andrew, Eds., Escom; Leiden, Netherlands (1990).
Biological Assay for Inhibition of Microbial Expressed Viral Protease
The inhibition constants against HIV-1 protease were measured using the method described by M. V. Toth and G. R. Marshall, Int. J. Peptide protein Res., 1990, 544. The method described M. W. Pennington et al., Peptides 1990, Gimet, E. and D. Andrew, Eds., Escom; Leiden, Netherlands (1990) may also be used. Inhibition is measured as IC50 in μM. The person of skill would accept these tests as predictive of the compounds' utility in vivo to treat HIV infected patients.

Structures are written as SMILES.

As to `CC(C)(C)OC(=O)N[C@@H](Cc1ccccc1)[C@H](O)C1SCCN1S(=O)(=O)c1ccc(F)cc1` (some centres unmarked), the IC50 is under 5 µM.

As for `COCC(=O)N[C@@H](Cc1ccccc1)[C@H](O)C1SCCN1S(=O)(=O)c1ccc(F)cc1` (some centres unmarked), the IC50 is under 5 µM.

(Values after patent US6673821B2, “Nitrogen heterocycle inhibitors of aspartyl protease” (Enanta Pharmaceuticals, Inc., priority 2001, dated 2004).)
